Values from PubChem BioAssay AID624099 (ICCB-Longwood, 2012)
In all, the deposit lists about 21,000 reagents; this is an unselected part. 497 of all reagents (2.4%) were called active. 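Higher z means weaker E2 silencing; only reporter increases were scored, and knock-downs that hurt cell survival may mask genuine repressor factors.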 Unmarked entries are inactive. Reagents against one gene are numbered here.

Aim: 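Human genes that papillomavirus E2 requires to repress the HPV18 LCR promoter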 (primary screen)
Cell system: human C33A cervical carcinoma cells (HPV-negative) stably expressing BPV1 E2 and an HPV18 LCR luciferase reporter
Knock-down reagent: siRNA pool against human genes, 40 nM
Timing: 72 h
Measured: 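HPV18 LCR reporter light per well, converted to plate-wise z-scores that exclude control wells, and averaged over triplicate plates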
Direction: mean z-score and z-score: higher = stronger reporter signal, weaker E2 silencing
Call rule: 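Mean z ≥ 2 together with z ≥ 2 in two or more of the three replicates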

gene knocked down	pool no.	mean z-score	z-score, replicate A	z-score, replicate B	z-score, replicate C
HERC5 (GeneID 51191)	1	0.55	0.58	0.42	0.66
LOC107986845 (GeneID 107986845)	1	1.96	1.91	2.08	1.9
LOC107986845 (GeneID 107986845)	2	1.42	0.88	2.03	1.35
PITPNM3 (GeneID 83394)	1	1.9	1.84	1.86	2
SYNE2 (GeneID 23224)	1	-0.25	0.05	-0.64	-0.16
SLC17A2 (GeneID 10246)	1	1.31	1.55	1.16	1.24
LINC00656 (GeneID 200261)	1	0.27	0.56	0.18	0.07
EI24 (GeneID 9538)	1	0.11	0.51	-0.13	-0.04
SSUH2 (GeneID 51066)	1	-0.22	-0.38	-0.09	-0.19
TFDP1 (GeneID 7027)	1	-0.19	0.03	-0.24	-0.36
DIRAS1 (GeneID 148252)	1	1.43	1.2	1.57	1.52
LOC389182 (retired record) (GeneID 389182)	1	0.06	-0.09	0.3	-0.03
PYCR1 (GeneID 5831)	1	1.32	1.5	1.32	1.15
MPO (GeneID 4353)	1	1.38	1.3	1.34	1.52
KIAA1217 (GeneID 56243)	1	0.27	0.11	0.37	0.34

The list goes on; the last 2 above are carried over.
gene knocked down	pool no.	mean z-score	z-score, replicate A	z-score, replicate B	z-score, replicate C
MPO (GeneID 4353)	1	1.38	1.3	1.34	1.52
KIAA1217 (GeneID 56243)	1	0.27	0.11	0.37	0.34
H3C1 (GeneID 8350)	1	-1.32	-1.33	-1.31	-1.32
LOC728073 (retired record) (GeneID 728073)	1	0.58	0.5	0.47	0.77
SNU13 (GeneID 4809)	1	-1.73	-1.58	-1.91	-1.68
PDCD6IP (GeneID 10015)	1	0.8	1.15	0.67	0.57
ORM1 (GeneID 5004)	1	-0.17	-0.14	-0.28	-0.09
ARL11 (GeneID 115761)	1	-0.62	-0.59	-0.58	-0.68
SCRN3 (GeneID 79634)	1	0.55	0.87	0.61	0.18
CCDC116 (GeneID 164592)	1	1.06	1.17	0.96	1.07
LOC388002 (retired record) (GeneID 388002)	1	-0.26	0	-0.41	-0.38
SLC6A6 (GeneID 6533)	1	-0.91	-0.64	-0.99	-1.11
ZNF573 (GeneID 126231)	1	-0.99	-0.7	-1.19	-1.07
UBE2C (GeneID 11065)	1	0.27	0.22	0.3	0.29
LOC400705 (retired record) (GeneID 400705)	1	0.6	0.89	0.08	0.82
DYNLT2 (GeneID 6991)	1	2.02 (active)	2.03	1.84	2.18
GNL1 (GeneID 2794)	1	-0.45	-0.25	-0.66	-0.45
FXYD2 (GeneID 486)	1	-0.47	-0.42	-0.33	-0.67
PRAMEF18 (GeneID 391003)	1	-1.43	-2.07	-1.19	-1.03
UTP4 (GeneID 84916)	1	-0.33	-0.24	-0.44	-0.32
SEMA7A (GeneID 8482)	1	-1.09	-0.84	-1.02	-1.42
PIK3AP1 (GeneID 118788)	1	-0.38	-0.46	-0.4	-0.28
UBE2K (GeneID 3093)	1	0.1	0.04	0.09	0.18
KIR2DL4 (GeneID 3805)	1	-1.23	-1.13	-1.35	-1.2
ANKRD20A11P (GeneID 391267)	1	-0.07	0.06	0.31	-0.59
FAM199X (GeneID 139231)	1	-1.6	-1.68	-1.68	-1.44
